Measured values from several laboratories, pooled; numbers as filed in NIAID ChemDB.

All rows: tests in culture; organism: Mycobacterium tuberculosis

ECn is the concentration giving n% inhibition of infection, replication or growth. Inhibition is in % at the dose shown (toxicity tests: loss of growth or viability). A number after MIC or MFC names an inhibition level or a share of isolates. Blank or dashed fields: not listed here. MIC bound: limit read from a one-dose screen. Lines come from different laboratories, so protocols vary.

smiles | changes | strain | method | tested at | endpoint | cell line | result
O=S(=O)(O)CCCN1c2ccccc2Sc2ccccc21 | gfp | H37Rv-GFP | fluorescence | - | MIC | - | 12.5 µg/mL
NC[C@H]1O[C@H](O[C@H]2[C@H](O)[C@@H](O[C@H]3O[C@H](CO)[C@@H](O)[C@H](N)[C@H]3O)[C@H](N)C[C@@H]2N)[C@H](O)[C@@H](O)[C@@H]1O | Isoniazid-resistant | H37Rv | resazurin / fluorescence | - | MIC90 | - | 0.95 µg/mL
CCC=Nc1c(O)cc(-c2ccccc2)n(C)c1=O | - | H37Rv | BACTEC | - | MIC bound | - | >12.5 µg/mL
COc1cc(C2OC(c3sc4ccc(Cl)cc4c3Cl)=NN2C(C)=O)ccc1O | - | - | agar diffusion / agar | 40 µg/mL | inhibition | - | 5%
N/C(=N\N=C\c1ccccc1Br)c1ccncc1 | - | 1342 | - | - | MIC | - | 16 µg/mL
CO[C@H]1/C=C/O[C@@]2(C)Oc3c(C)c(O)c4c(O)c(c5c(c4c3C2=O)NC2(CCN(CC(C)C)CC2)N=5)=NC(=O)/C(C)=C\C=C\[C@H](C)[C@H](O)[C@@H](C)[C@@H](O)[C@@H](C)[C@H](OC(C)=O)[C@@H]1C | - | 1620-6 (RIF-S) | - | - | MIC | - | 0.03 µg/mL
Cc1ccc(NC(=O)CC(=O)n2nc(-c3ccccc3)c(N=Nc3ccccc3C(=O)O)c2-c2ccccc2)cc1 | - | H37Rv | BACTEC | - | MIC bound | - | >12.5 µg/mL
CCc1nc2ccc(C)cc2c2nc3ccccc3n12 | - | H37Rv | resazurin | - | MIC99 | - | 25 µg/mL
CO[C@H]1/C=C/O[C@@]2(C)Oc3c(C)c(O)c4c(O)c(c(/C=N/N5CCN(C)CC5)c(O)c4c3C2=O)NC(=O)/C(C)=C\C=C\[C@H](C)[C@H](O)[C@@H](C)[C@@H](O)[C@@H](C)[C@H](OC(C)=O)[C@@H]1C | - | Clinical isolate 3 | - | - | MIC | - | 0.1 µg/mL
Cc1cccc(N2C(=O)/C(=C/c3ccc(N(CCC#N)CCC#N)cc3C)N=C2c2cc([N+](=O)[O-])ccc2Cl)c1 | - | H37Rv | BACTEC | - | MIC bound | - | >12.5 µg/mL
NC(=O)c1cnccn1 | - | M142 | - | - | MIC | - | 8 µg/mL
COc1ccc(/C(CC2OC(=O)c3ccccc32)=N/NC(=O)C[N+](C)(C)C)cc1.[Cl-] | - | H37Rv | BACTEC | 12.5 µg/mL | inhibition | - | -5%
Nc1ccc(C(=O)O)c(O)c1 | - | Clinical isolate 7 | - | - | MIC | - | 2 µg/mL
CCOC(=O)c1ccc(NC(=O)C(CC(=O)Nc2ccc(C)cc2)C(C)=O)cc1 | - | H37Rv | - | 30 µg/mL | inhibition | - | 0%
CC[C@H]1OC(=O)[C@H](C)[C@@H](O[C@H]2C[C@@](C)(OC)[C@@H](O)[C@H](C)O2)[C@H](C)[C@@H](O[C@@H]2O[C@H](C)C[C@H](N(C)C)[C@H]2O)[C@](C)(OC)C[C@@H](C)C(=O)[C@H](C)[C@@H](O)[C@]1(C)O | - | H37Rv | - | - | MIC | - | >4 µg/mL
C[C@]1(COc2ccc(N3CCC(Oc4ccc(OC(F)(F)F)cc4)CC3)cc2)Cn2cc([N+](=O)[O-])nc2O1 | - | UT29 | - | - | MIC | - | 0.024 µg/mL
COc1ccc2nc(Cl)c(C3OC(c4sc5ccc(Cl)cc5c4Cl)=NN3C(C)=O)cc2c1 | - | - | agar diffusion / agar | 40 µg/mL | inhibition | - | 4%
NC[C@H]1O[C@H](O[C@H]2[C@H](O)[C@@H](O[C@H]3O[C@H](CO)[C@@H](O)[C@H](N)[C@H]3O)[C@H](N)C[C@@H]2N)[C@H](O)[C@@H](O)[C@@H]1O | - | 72 strains | BACTEC | - | EC50 | - | 2.5 µg/mL
CN1N=C(c2ccncc2)OC1c1ccc(Cl)cc1 | - | 6 PI | - | - | MIC | - | >20 µg/mL
CC1(C)CCCN1CC(O)CN1c2ccccc2Sc2ccc(Cl)cc21.Cl | - | H37Rv | BACTEC | - | MIC bound | - | ≤12.5 µg/mL
c1ccc2cc3c(cc2c1)nc1c2ccccc2ncn31 | - | H37Rv | resazurin | - | MIC99 | - | >25 µg/mL
CCCCCCCCCC(=O)N[C@H]1[C@H](Oc2c3cc4cc2Oc2ccc(cc2Cl)[C@@H](O[C@@H]2O[C@H](CO)[C@@H](O)[C@H](O)[C@H]2NC(C)=O)[C@@H]2NC(=O)[C@H](NC(=O)[C@@H]4NC(=O)[C@H]4NC(=O)[C@@H](Cc5ccc(c(Cl)c5)O3)NC(=O)[C@H](N)c3ccc(O)c(c3)Oc3cc(O)cc4c3)c3ccc(O)c(c3)-c3c(O[C@H]4O[C@H](CO)[C@@H](O)[C@H](O)[C@@H]4O)cc(O)cc3[C@H](C(=O)O)NC2=O)O[C@H](CO)[C@@H](O)[C@@H]1O | - | L1908 | - | - | MIC | - | 32 µg/mL
CCC/C(C)=N/NC(=S)SC | - | H37Rv | BACTEC | - | MIC bound | - | ≤12.5 µg/mL
CCOC(=O)c1ccc(NC(=O)CC(C(C)=O)C(=O)Nc2cccc3ccccc23)cc1 | - | H37Rv | - | 5 µg/mL | inhibition | - | 0%
Cc1nc2ccccc2c2nc3cc4ccccc4cc3n12 | - | H37Rv | resazurin | - | MIC99 | - | 6.25 µg/mL
CN[C@@H]1[C@H](O[C@H]2[C@H](O[C@H]3[C@H](O)[C@@H](O)[C@H](N=C(N)N)[C@@H](O)[C@@H]3N=C(N)N)O[C@@H](C)[C@]2(O)C=O)O[C@@H](CO)[C@H](O)[C@H]1O | - | 3897 | - | - | MIC | - | ≥2 µg/mL
O=C(/C=C/c1ccc(O)cc1)OC[C@H]1O[C@@H](Oc2cc(O)c3c(c2)OC(c2ccc(O)cc2)CC3=O)[C@H](O)[C@@H](O)[C@@H]1O | - | H37Rv | BACTEC | 12.5 µg/mL | inhibition | - | 18%
Cc1cccc(C)c1N=Nc1c(C)[nH]n(C(=O)c2sc3ccc(Cl)cc3c2Cl)c1=O | - | - | agar diffusion / agar | 40 µg/mL | inhibition | - | 27%
CC1(C)CC(N=c2cc3n(-c4ccc(Cl)cc4Cl)c4ccccc4nc-3cc2Nc2ccc(Cl)cc2Cl)CC(C)(C)N1 | - | H37Ra | BACTEC | - | EC50 | - | <0.6 µg/mL
CCOC(=O)c1c(NC(=O)c2ccccc2)sc2c1CCC2 | - | H37Rv | resazurin | 6.25 µg/mL | inhibition | - | -3%
Cc1nc2ccc(Cl)cc2c2nc3ccccc3n12 | - | H37Rv | resazurin | - | MIC99 | - | >25 µg/mL
Nc1cc(Cl)cc2c1[nH]c(=O)c1ccccc12 | - | H37Rv | BACTEC | - | MIC bound | - | >12.5 µg/mL
CC(=O)N1N=C(c2sc3ccc(Cl)cc3c2Cl)OC1c1ccccc1[N+](=O)[O-] | - | - | agar diffusion / agar | 40 µg/mL | inhibition | - | 20%
Nc1ncnc2c1ncn2[C@H]1C[C@H](O)[C@@H](COS(=O)(=O)NC(=O)c2ccccc2O)O1 | - | H37Rv | - | - | MIC | - | 25 µM
CCS | - | H37Rv | - | - | MIC | - | 0.1 µg/mL
Nc1ncnc2c1ncn2[C@@H]1O[C@H](COS(=O)(=O)NC(=O)c2ccccc2O)C[C@H]1O | - | H37Rv | - | - | MIC | - | 1.56 µM
CCN(CC)CCCNc1cc(OC)cc2nc3cc(Cl)ccc3nc12.Cl.Cl | - | H37Rv | BACTEC | - | MIC | VERO | 6.25 µg/mL
COc1cc(/C=N/N=C(\N)c2ccncc2)cc(OC)c1OC | - | 1054 | - | - | MIC | - | >256 µg/mL
CCCCCCCCS(=O)(=O)CC(N)=O | - | 42401315 | - | - | MIC | - | ≤6.25 µg/mL
O=C1CS(=O)(=O)C(c2ccccn2)N1CCN1C(=O)CS(=O)(=O)C1c1ccccn1 | - | H37Rv | BACTEC | 12.5 µg/mL | inhibition | - | 0%
COc1ccc(C2OC(c3ccncc3)=NN2C)cc1F | - | H37Rv | - | - | MIC | - | >20 µg/mL
CCCc1c2c([nH]c(=O)c1C)C(=O)c1[nH]c(=O)c(C)c(CCC)c1C2=O | Cycloserine-resistant | H37Rv | resazurin / fluorescence | - | MIC90 | - | 0.14 µg/mL
COc1ccc(NC(=O)CC(C(C)=O)C(=O)Nc2cccc3ccccc23)cc1 | - | H37Rv | - | 30 µg/mL | inhibition | - | 0%
COC1OC(CO)C(O)C1NC(C)=O | - | H37Rv | BACTEC | 12.5 µg/mL | inhibition | - | 29%
NNC(=O)c1ccncc1 | - | Clinical isolate 12 | - | - | MIC | - | 5 µg/mL
CC(=O)C(CC(=O)Nc1ccc(C)cc1)C(=O)Nc1cccc2ccccc12 | - | H37Rv | - | 5 µg/mL | inhibition | - | 0%
Nc1ncnc2c1ncn2[C@@H]1O[C@H](CNS(=O)(=O)NC(=O)c2ccccc2[O-])[C@@H](O)[C@H]1O | - | H37Rv | - | - | MIC | - | 0.19 µM
Cc1cc(=O)[nH]c2c1C(=O)c1c(CCCCCCCC(C)C)cc(=O)[nH]c1C2=O | - | H37Rv | resazurin / fluorescence | - | MIC90 | - | 0.07 µg/mL
CCOC(=O)c1ccc(NC(=O)C(CC(=O)Nc2ccc(OCC)cc2)C(C)=O)cc1 | - | H37Rv | - | 30 µg/mL | inhibition | - | 0%
COc1ccc(OC)c(/C=N/N=C(\N)c2ccncc2)c1 | - | H37Rv | - | - | MIC | - | 256 µg/mL
CN1N=C(c2ccncc2)OC1c1ccc(F)cc1 | - | 6 PI | - | - | MIC | - | >20 µg/mL
S=C(S)N1CCCC1 | - | CS-R | - | - | MIC | - | 0.2 µg/mL
CCOC(=O)c1ccc(NC(=O)C(CC(=O)Nc2cccc3ccccc23)C(C)=O)cc1 | - | H37Rv | - | 30 µg/mL | inhibition | - | 0%
CSc1ccc2c(c1)N(CCCS(=O)(=O)O)c1ccccc1S2 | gfp | H37Rv-GFP | fluorescence | - | MIC | - | 25 µg/mL
CC(=O)N1N=C(c2sc3ccc(Cl)cc3c2Cl)OC1c1cccc(Oc2ccccc2)c1 | - | - | agar diffusion / agar | 40 µg/mL | inhibition | - | 4%
N/C(=N\N=C\c1ccc(Cl)c([N+](=O)[O-])c1)c1ccncc1 | - | 1481 | - | - | MIC | - | 256 µg/mL
CN1N=C(c2ccncc2)OC1c1ccc(C(F)(F)F)cc1 | - | H37Rv | - | - | MIC | - | >20 µg/mL
Cc1ccc(NP2(Nc3ccc(C)cc3)=NP(Nc3ccc(C)cc3)(N3CC3)=NP(Nc3ccc(C)cc3)(N3CC3)=N2)cc1 | - | TAC-R | - | - | MIC | - | 3.2 µg/mL
c1ccc2c(c1)ncn1c3ccccc3nc21 | - | H37Rv | resazurin | - | MIC99 | - | 1.56 µg/mL
C=CN(O)C[C@@H](CCCC)C(=O)N[C@H](C(=O)N(C)C)C(C)(C)C | - | H37Rv | - | - | MIC90 | - | 0.2 µg/mL
CCCCc1nc2ccc(Br)cc2c2nc3ccccc3n12 | INH resistant | H37Rv | resazurin | - | MIC99 | - | 6.25 µg/mL
CCOc1ccc(NC(=O)CC(C(C)=O)C(=O)Nc2cccc3ccccc23)cc1 | - | H37Rv | - | 5 µg/mL | inhibition | - | 0%
N/C(=N\N=C\c1ccc(Cl)cc1)c1ccncc1 | - | H37Rv | - | - | MIC | - | 32 µg/mL
Cc1cc2c(c(=O)o1)C(C)CC(c1c(O)cc(C)oc1=O)O2 | - | H37Rv | BACTEC | - | MIC bound | - | >12.5 µg/mL
O=C(NCc1ccc(N2CCN(Cc3ccccc3)CC2)nc1)c1ccc([N+](=O)[O-])o1 | - | H37Rv | - | - | MIC | - | 0.006 µg/mL
CCCCCCCCCCCCCCCCS(=O)(=O)Nc1cc(C(=O)NN)cc(C(=O)NN)c1 | - | H37Rv | BACTEC | 12.8 µg/mL | inhibition | - | 4%
CN(C)CCCN1c2ccccc2Sc2ccccc21 | gfp | H37Rv-GFP | fluorescence | - | MIC | - | >25 µg/mL
Cc1ccc2nc(C)n3c4ccccc4nc3c2c1 | - | H37Rv | resazurin | - | MIC99 | - | 0.78 µg/mL
CN1N=C(c2ccncc2)OC1c1ccc(Cl)c(Cl)c1 | - | 16PI | - | - | MIC | - | 5 µg/mL
Cc1nc2ccc(F)cc2c2nc3ccccc3n12 | - | H37Rv | resazurin | - | MIC99 | - | 25 µg/mL
Cn1cc(NC(=O)Nc2cc(C(=O)Nc3cc(C(=O)Nc4ccc5c(S(=O)(=O)O)cccc5c4S(=O)(=O)O)n(C)c3)n(C)c2)cc1C(=O)Nc1cc(C(=O)Nc2ccc3c(S(=O)(=O)O)cccc3c2S(=O)(=O)O)n(C)c1 | - | H37Rv | BACTEC | 12.5 µg/mL | inhibition | - | 0%
O=C(c1ccc([N+](=O)[O-])o1)N1CCc2cc(N3CCN(Cc4ccccc4)CC3)ccc2C1 | - | H37Rv | - | - | MIC | - | 0.012 µg/mL
C[C@H](NC(=O)[C@@H]1CCCN1C(=O)OCc1ccccc1)C(=O)O | - | H37Rv | BACTEC | 12.5 µg/mL | inhibition | - | -19%
COc1ccccc1/C=N/N=C(\N)c1ccncc1 | - | H37Rv | - | - | MIC | - | 64 µg/mL
O=C(Nc1ccccc1)OCCN=c1c2ccccc2ccc2ccccc12 | - | H37Rv | BACTEC | - | MIC bound | - | >12.5 µg/mL
COc1cc(/C=N/N=C(\N)c2ccncc2)cc(OC)c1 | - | 1054 | - | - | MIC | - | 256 µg/mL
O=c1ccc2cc3ccoc3c(O)c2o1 | - | H37Rv | BACTEC | - | MIC bound | - | >12.5 µg/mL
CC(=O)C(CC(=O)Nc1cccc(Cl)c1)C(=O)Nc1cccc2ccccc12 | - | H37Rv | - | 30 µg/mL | inhibition | - | 0%

The last 6 rows once more:

{"smiles": "C[C@H](NC(=O)[C@@H]1CCCN1C(=O)OCc1ccccc1)C(=O)O", "strain": "H37Rv", "method": "BACTEC", "tested at": "12.5 µg/mL", "endpoint": "inhibition", "result": "-19%"}
{"smiles": "COc1ccccc1/C=N/N=C(\\N)c1ccncc1", "strain": "H37Rv", "endpoint": "MIC", "result": "64 µg/mL"}
{"smiles": "O=C(Nc1ccccc1)OCCN=c1c2ccccc2ccc2ccccc12", "strain": "H37Rv", "method": "BACTEC", "endpoint": "MIC bound", "result": ">12.5 µg/mL"}
{"smiles": "COc1cc(/C=N/N=C(\\N)c2ccncc2)cc(OC)c1", "strain": "1054", "endpoint": "MIC", "result": "256 µg/mL"}
{"smiles": "O=c1ccc2cc3ccoc3c(O)c2o1", "strain": "H37Rv", "method": "BACTEC", "endpoint": "MIC bound", "result": ">12.5 µg/mL"}
{"smiles": "CC(=O)C(CC(=O)Nc1cccc(Cl)c1)C(=O)Nc1cccc2ccccc12", "strain": "H37Rv", "tested at": "30 µg/mL", "endpoint": "inhibition", "result": "0%"}